Compound potency records, mixed from different reports. Data source: NIAID ChemDB in PubChem.

Common to all: tests in culture

Two numbers with a dash give a range or band.

SMILES | setting | measure | agent | read by | strain | tested at | value
Cc1nc2ccc(Cl)cn2c1C(=O)NCc1ccc(N2CCN(c3ccc(OC(F)(F)F)cc3)[C@H](C)C2)c(F)c1.Cl | - | inhibition | Mycobacterium avium | fluorescence | - | 0.0069 µM | 85%
CCCCCCCCCCCCNNC(=O)O[C@H]1[C@H](O[C@@H]2[C@@H](C)[C@H](O[C@H]3C[C@@](C)(OC)[C@@H](OC(C)=O)[C@H](C)O3)[C@@H](C)C(=O)O[C@H](CC)[C@@](C)(O)[C@H](O)[C@@H](C)/C(=N/OCCCC3CCCCC3)[C@H](C)CC2(C)O)O[C@H](C)C[C@@H]1N(C)C | - | MIC | Mycobacterium avium complex | - | 20096 (clarithromycin-resistant) | - | 50 µg/mL
O=C(NNC(=O)c1ccncc1)Nc1ccc(Br)cc1F | 14 d | MIC100 | Mycobacterium kansasii | broth dilution | My 235/80 | - | >125 µM
O=C(NCc1ccc(OC(F)F)cc1)c1c(Cl)nc2ccccn12 | - | MIC50 | Mycobacterium ulcerans | fluorescence | - | - | 0.1–1 µg/mL
Cc1nc2ccc(Cl)cn2c1C(=O)NCc1ccc(N2CCN(c3ccc(OC(F)(F)F)cc3)[C@@H](C)C2)c(F)c1 | - | inhibition | Mycobacterium avium | fluorescence | - | 0.0027 µM | 85%
CO[C@@]1(NC(=O)C2SC(=C(C(N)=O)C(=O)[O-])S2)C(=O)N2C(C(=O)[O-])=C(CSc3nnnn3C)CS[C@@H]21 | - | MIC | Mycobacterium fortuitum | - | 1004-8 | - | 100 µg/mL
Cc1ccn2c(C(=O)NC(C)c3ccc(N4CCOCC4)cc3)c(C)nc2c1 | - | MIC50 | Mycobacterium ulcerans | fluorescence | - | - | >10 µg/mL
CCCCCCCCCCCCCCCCCCCOC(=O)NC(CCC(=O)O)(CCC(=O)O)CCC(=O)O | - | MIC | Mycobacterium abscessus | - | AAy-P-1 | - | 18 µg/mL
CO[C@@]1(NC(=O)CSCC#N)C(=O)N2C(C(=O)O)=C(CSc3nnnn3C)CS[C@@H]21 | - | MIC | Mycobacterium fortuitum | - | 1004-8 | - | 12.5 µg/mL
CCCCCCCCCCCCCCCCCCNC(=O)NC(CCC(=O)O)(CCC(=O)O)CCC(=O)O | - | MIC | Mycobacterium marinum | - | ATCC 927 | - | 23 µg/mL
CCCCCCO/N=C1\[C@H](C)CC(C)(O)[C@H](O[C@@H]2O[C@H](C)C[C@H](N(C)C)[C@H]2O)[C@@H](C)[C@H](OC2C[C@@](C)(OC)[C@@H](O)[C@H](C)O2)[C@@H](C)C(=O)O[C@H](CC)[C@@](C)(O)[C@H](O)[C@H]1C | - | MIC | Mycobacterium avium complex | - | 20092 (clarithromycin-resistant) | - | 25 µg/mL
CO[C@@]1(NC(=O)Cc2ccccc2)C(=O)N2C(C(=O)[O-])=C(CSc3nnc(C)s3)CSC21 | - | MIC | Mycobacterium fortuitum | - | 1045 | - | >100 µg/mL
CCc1nc2ccc(Cl)cn2c1C(=O)NCc1ccc(-n2ccc(C(F)(F)F)n2)cc1 | - | inhibition | Mycobacterium avium | fluorescence | - | 0.14 µM | 85%
CCCCCCCCCCCCCCC(=O)NC(C)(CCC(=O)O)CCC(=O)O | - | MIC | Mycobacterium chelonae | - | EO-P-1 | - | 9 µg/mL
CO[C@@]1(NC(=O)Cc2ccccc2)C(=O)N2C(C(=O)O)=C(COC(C)=O)CSC21 | - | MIC | Mycobacterium fortuitum | - | 1059 | - | >100 µg/mL
CCc1nc2cc(F)ccn2c1C(=O)NCc1ccc(N2CCN(c3cc(F)c(OC(F)(F)F)c(F)c3)[C@@H](C)C2)c(F)c1.Cl | - | inhibition | Mycobacterium avium | fluorescence | - | 0.0065 µM | 85%
CCc1nc(N)nc(N)c1-c1ccc(Cl)cc1 | - | MIC | Mycobacterium avium complex | - | DW3 | - | 32 µg/mL
CC[C@H]1OC(=O)[C@H](C)[C@@H](O[C@H]2C[C@@](C)(OC)[C@@H](OC(C)=O)[C@H](C)O2)[C@H](C)[C@@H](O[C@@H]2O[C@H](C)C[C@H](N(C)C)[C@H]2O)C(C)(O)C[C@@H](C)/C(=N\OCCc2cccs2)[C@H](C)[C@@H](O)[C@]1(C)O | - | MIC | Mycobacterium avium complex | - | 20092 (clarithromycin-resistant) | - | 12.5 µg/mL
CCCCCCCCCCCCCCCCC(=O)NC(CCC(=O)O)(CCC(=O)O)CCC(=O)O | - | MIC | Mycobacterium marinum | - | ATCC 927 | - | 288 µg/mL
O=C(NNC(=O)c1ccncc1)Nc1ccc(Br)c(C(F)(F)F)c1 | 21 d | MIC100 | Mycobacterium kansasii | broth dilution | My 6509/96 | - | 125 µM
CCCCOc1ccc(N2CCN(c3ccc(CNC(=O)c4c(CC)nc5ccc(Cl)cn45)c(F)c3)C[C@@H]2C)cc1.Cl | - | inhibition | Mycobacterium avium | fluorescence | - | 0.019 µM | 85%
O=C(NCCO)c1c(Cl)nc2ccccn12 | - | MIC50 | Mycobacterium ulcerans | fluorescence | - | - | >10 µg/mL
CCCCCCC(=O)O[C@H]1[C@H](C)OC(O[C@H]2[C@H](C)[C@@H](O[C@@H]3O[C@H](C)C[C@H](N(C)C)[C@H]3O)C(C)(O)C[C@@H](C)/C(=N\OCCCOc3ccccc3)[C@H](C)[C@@H](O)[C@](C)(O)[C@@H](CC)OC(=O)[C@@H]2C)C[C@@]1(C)OC | - | MIC | Mycobacterium avium complex | - | 20096 (clarithromycin-resistant) | - | 3.13 µg/mL
CCc1nc2cc(F)ccn2c1C(=O)NCc1ccc(N2CCN(c3ccc(C(F)(F)F)cn3)[C@@H](C)C2)c(F)c1.Cl | - | inhibition | Mycobacterium avium | fluorescence | - | 0.0048 µM | 85%
O=C(NNC(=O)c1ccncc1)Nc1ccc(Br)c(F)c1 | 7 d | MIC100 | Mycobacterium kansasii | broth dilution | My 235/80 | - | 125 µM
CC[C@H]1OC(=O)[C@H](C)[C@@H](OC2C[C@@](C)(OC)[C@@H](OC(=O)c3ccccc3)[C@H](C)O2)[C@H](C)[C@@H](O[C@@H]2O[C@H](C)C[C@H](N(C)C)[C@H]2O)C(C)(O)C[C@@H](C)/C(=N\OCCCOc2ccccc2)[C@H](C)[C@@H](O)[C@]1(C)O | - | MIC | Mycobacterium avium complex | - | 20092 (clarithromycin-resistant) | - | 1.56 µg/mL
CCCCCc1ccc(NC(=O)NNC(=O)c2ccncc2)cc1 | 7 d | MIC100 | Mycobacterium kansasii | broth dilution | My 6509/96 | - | 32 µM
CC[C@H]1OC(=O)[C@H](C)[C@@H](O[C@H]2C[C@@](C)(OC)[C@@H](O)[C@H](C)O2)[C@H](C)[C@@H](O[C@@H]2O[C@H](C)C[C@H](N(C)C)[C@H]2O)[C@](C)(OC)C[C@@H](C)C(=O)[C@H](C)[C@@H](O)[C@]1(C)O | - | MIC | Mycobacterium marinum | - | ATCC 927 | - | 1.6 µg/mL
CC[C@H]1OC(=O)[C@H](C)[C@@H](OC(=O)CCCc2ccccc2)[C@H](C)[C@@H](O[C@@H]2O[C@H](C)C[C@H](N(C)C)[C@H]2O)C(C)(O)C[C@@H](C)/C(=N\OCCCOc2ccccc2)[C@H](C)[C@@H](O)[C@]1(C)O | - | MIC | Mycobacterium avium complex | - | 20096 (clarithromycin-resistant) | - | 12.5 µg/mL
CCCCCCCCCCCCCCCCCCCCCOC(=O)NC(C)(CCC(=O)O)CCC(=O)O | - | MIC | Mycobacterium abscessus | - | AAy-P-1 | - | 72 µg/mL
CO[C@H]1/C=C/O[C@@]2(C)Oc3c(C)c(O)c4c(O)c(c5c(c4c3C2=O)NC2(CCN(CC(C)C)CC2)N=5)=NC(=O)/C(C)=C\C=C\[C@H](C)[C@H](O)[C@@H](C)[C@@H](O)[C@@H](C)[C@H](OC(C)=O)[C@@H]1C | - | MIC | Mycobacterium avium intracellulare | - | 998 | - | 0.125 µg/mL
CCc1nc2ccc(C#N)cn2c1C(=O)NCc1ccc(N2CCN(c3ccc(OC(F)(F)F)cc3)[C@@H](C)C2)c(F)c1 | - | inhibition | Mycobacterium avium | fluorescence | - | 0.11 µM | 85%
CCCCCCCCC(CCCCCCCC)OC(=O)NC(CCC(=O)O)(CCC(=O)O)CCC(=O)O | - | MIC | Mycobacterium marinum | - | ATCC 927 | - | 283 µg/mL
CO[C@H]1/C=C/O[C@@]2(C)Oc3c(C)c(O)c4c(=O)c(c5oc6cc(N7CCN(CC(C)C)CC7)cc(=O)c6nc5c4c3=C2O)NC(=O)/C(C)=C\C=C\[C@H](C)[C@H](O)[C@@H](C)[C@@H](O)[C@@H](C)[C@H](OC(C)=O)[C@@H]1C | - | MIC | Mycobacterium ulcerans | - | Isolate 94-886 | - | 0.012 µg/mL
CCc1nc2cc(F)ccn2c1C(=O)NCc1ccc(N2CCN(c3ccc(OC(F)(F)F)cc3)[C@@H](C)C2)c(F)c1 | - | inhibition | Mycobacterium avium | fluorescence | - | 0.0013 µM | 85%
Cc1cc(CNC(=O)c2c(Cl)nc3ccccn23)c2[nH]c(C)c(C)c2c1 | - | MIC50 | Mycobacterium ulcerans | fluorescence | - | - | >10 µg/mL
CCCCCCCc1ccc(NC(=O)NNC(=O)c2ccncc2)cc1 | 7 d | MIC100 | Mycobacterium kansasii | broth dilution | My 235/80 | - | 32 µM
CO[C@@]1(NC(=O)C(C(=O)O)c2ccc(O)cc2)C(=O)N2C(C(=O)O)=C(CSc3nnnn3C)CO[C@@H]21 | - | MIC | Mycobacterium fortuitum | - | AO5 | - | 50 µg/mL
Cc1ccn2c(C(=O)NCc3ccc(OC(F)(F)F)cc3)c(C)nc2c1 | - | MIC50 | Mycobacterium ulcerans | fluorescence | - | - | 0.1–1 µg/mL
CC[C@H]1OC(=O)[C@H](C)[C@@H](O[C@H]2C[C@@](C)(OC)[C@@H](OC(C)=O)[C@H](C)O2)[C@H](C)[C@@H](O[C@@H]2O[C@H](C)C[C@H](N(C)C)[C@H]2OC(=O)NNCCCCc2ccccc2)C(C)(O)C[C@@H](C)/C(=N\OCCCC2CCCCC2)[C@H](C)[C@@H](O)[C@]1(C)O | - | MIC | Mycobacterium avium complex | - | 20092 (clarithromycin-resistant) | - | 3.13 µg/mL
CC(C)(C)c1ccc(NC(=O)NNC(=O)c2ccncc2)cc1 | 21 d | MIC100 | Mycobacterium kansasii | broth dilution | My 6509/96 | - | 62.5 µM
CC(C)N=C(N)/N=C(\N)NOCCCOc1cc(Cl)c(Cl)cc1Cl | - | MIC | Mycobacterium avium complex | - | 1625 | - | 32 µg/mL

Repeating the final 4 entries:

| SMILES | setting | measure | agent | read by | strain | tested at | value |
|---|---|---|---|---|---|---|---|
| Cc1ccn2c(C(=O)NCc3ccc(OC(F)(F)F)cc3)c(C)nc2c1 | - | MIC50 | Mycobacterium ulcerans | fluorescence | - | - | 0.1–1 µg/mL |
| CC[C@H]1OC(=O)[C@H](C)[C@@H](O[C@H]2C[C@@](C)(OC)[C@@H](OC(C)=O)[C@H](C)O2)[C@H](C)[C@@H](O[C@@H]2O[C@H](C)C[C@H](N(C)C)[C@H]2OC(=O)NNCCCCc2ccccc2)C(C)(O)C[C@@H](C)/C(=N\OCCCC2CCCCC2)[C@H](C)[C@@H](O)[C@]1(C)O | - | MIC | Mycobacterium avium complex | - | 20092 (clarithromycin-resistant) | - | 3.13 µg/mL |
| CC(C)(C)c1ccc(NC(=O)NNC(=O)c2ccncc2)cc1 | 21 d | MIC100 | Mycobacterium kansasii | broth dilution | My 6509/96 | - | 62.5 µM |
| CC(C)N=C(N)/N=C(\N)NOCCCOc1cc(Cl)c(Cl)cc1Cl | - | MIC | Mycobacterium avium complex | - | 1625 | - | 32 µg/mL |

Percent inhibition refers to the dose given; in toxicity tests it is the harm to the cells. Rows are shuffled and stem from different studies. An empty or dashed field is not shown. MIC50, MIC90 and the like: level of inhibition, or share of isolates inhibited.